Results of unrelated studies side by side (data: NIAID ChemDB).

All rows: enzyme or target tests; species: Toxoplasma gondii

Blank or dashed fields: not listed here.

structure,strain or isolate,target,method,read-out,dose,value
CCCCCCCc1c(C)[nH]c2cc(OC)ccc2c1=O,2F,Cytochrome c reductase,absorbance,IC50,-,0.0082 µM
COc1cc(N2C(N)=NC(N)=NC2(C)C)cc(OC)c1OC,-,DHFR,-,IC50,-,84 µM
Nc1nc(N)c2cc(COC(=O)c3ccc4ccccc4c3)ccc2n1,-,Dihydrofolate reductase,-,IC50,-,0.51 µM
Nc1ccc(S(=O)(=O)Nc2nccs2)cc1,-,DHPS,-,Ki,-,1.9 µM
COc1cc(NCc2csc3nc(N)nc(N)c23)cc(OC)c1OC,-,DHFR,-,IC50,-,>10 µM
CC(Cc1coc2nc(N)nc(N)c12)c1ccccc1Cl,-,Dihydrofolate reductase,-,IC50,-,11 µM
CCCCCc1nc2nc(N)nc(N)c2nc1CCCCC,-,DHFR,-,IC50,-,0.17 µM
COc1cc(N2C(N)=NC(N)=NC2(C)C)c(OC)cc1Cl,-,DHFR,-,IC50,-,>60 µM
CC(Cc1coc2nc(N)nc(N)c12)c1ccc(Cl)cc1,-,Dihydrofolate reductase,-,IC50,-,40 µM
CC(C)c1nc2nc(N)nc(N)c2nc1C(C)C,-,DHFR,-,IC50,-,0.033 µM
Cc1cccc2nc(N)nc(N)c12,-,DHFR,-,IC50,-,4.98 µM
Nc1nc(N)c2cc(COC(=O)c3ccccc3-c3ccccc3)ccc2n1,-,Dihydrofolate reductase,-,IC50,-,0.17 µM
C/C(=C/c1coc2nc(N)nc(N)c12)c1cc(Cl)ccc1Cl,-,Dihydrofolate reductase,-,IC50,-,14 µM
Nc1nc(N)c2cc(COC(=O)c3c4ccccc4cc4ccccc34)ccc2n1,-,Dihydrofolate reductase,-,IC50,-,0.67 µM
Cc1[nH]c2ccccc2c(=O)c1-c1ccc(Oc2ccc(OC(F)(F)F)cc2)cc1,2F,Cytochrome c,absorbance,IC50,-,0.0306 µM
Nc1nc(N)c2nc(CC3CCCCC3)c(CC3CCCCC3)nc2n1,-,DHFR,-,IC50,-,0.46 µM
CC(Cc1coc2nc(N)nc(N)c12)c1ccccc1,-,Dihydrofolate reductase,-,IC50,-,37 µM
Nc1nc(N)c2nc3c(ccc4ccccc43)nc2n1,-,DHFR,-,IC50,-,4.9 µM
CC(=O)Nc1ccc(C(=O)O)cc1,RH,DHPS,-,inhibition,100 µM,67.3%
COc1cc(/C(C)=C/c2coc3nc(N)nc(N)c23)cc(OC)c1OC,-,Dihydrofolate reductase,-,IC50,-,25 µM
Nc1nc(N)c2cc(COC(=O)c3ccc(-c4ccccc4)cc3)ccc2n1,-,Dihydrofolate reductase,-,IC50,-,1.73 µM
COc1ccc2nc(N)nc(N)c2c1,-,DHFR,-,IC50,-,22 µM
COc1ccc2cc(/C(C)=C\c3coc4nc(N)nc(N)c34)ccc2c1,-,Dihydrofolate reductase,-,IC50,-,0.3 µM
Nc1nc(N)c2cc(C(F)(F)F)ccc2n1,-,DHFR,-,IC50,-,3.1 µM
C/C(=C/c1coc2nc(N)nc(N)c12)c1ccc(Cl)c(Cl)c1,-,Dihydrofolate reductase,-,IC50,-,1.7 µM
Nc1nc(N)c2cc(I)ccc2n1,-,DHFR,-,IC50,-,1.6 µM
CC(=O)Nc1ccc(C(=O)O)cc1,-,DHPS,-,IC50,-,54 µM
Nc1ccc(S(=O)(=O)c2ccc(N)cc2)cc1,-,DHPS,-,Ki,-,0.81 µM
CC(Cc1coc2nc(N)nc(N)c12)c1cc(Cl)ccc1Cl,-,Dihydrofolate reductase,-,IC50,-,15 µM
Nc1nc(N)c2cc(Cl)ccc2n1,-,DHFR,-,IC50,-,14 µM

For reference, 4 entries again:

structure | strain or isolate | target | method | read-out | dose | value
COc1ccc2nc(N)nc(N)c2c1 | - | DHFR | - | IC50 | - | 22 µM
COc1cc(/C(C)=C/c2coc3nc(N)nc(N)c23)cc(OC)c1OC | - | Dihydrofolate reductase | - | IC50 | - | 25 µM
Nc1ccc(S(=O)(=O)c2ccc(N)cc2)cc1 | - | DHPS | - | Ki | - | 0.81 µM
COc1ccc2cc(/C(C)=C\c3coc4nc(N)nc(N)c34)ccc2c1 | - | Dihydrofolate reductase | - | IC50 | - | 0.3 µM

Percent inhibition refers to the dose given; in toxicity tests it is the harm to the cells. Lines come from different laboratories, so protocols vary. ICn: concentration for n% inhibition.